Results on four compounds are retold here after patent publication US11083707B2, “Substituted indoline derivatives as dengue viral replication inhibitors” (JANSSEN PHARMACEUTICALS, INC., priority 2017, dated 2021).

Holding throughout (assay type): cell-based, Dengue virus
The subject of one data set is DENV-2 16681 strain. Description: DENV-2 antiviral assay (eGFP fluorescence, Vero cells). The settings on record: SI=CC50/EC50, DENV-2 antiviral assay. The protocol: The antiviral activity of all the compounds of the invention was tested against the DENV-2 16681 strain which was labeled with enhanced green fluorescent protein (eGPF). The culture medium consists of minimal essential medium supplemented with 2% of heat-inactivated fetal calf serum, 0.04% gentamycin (50 mg/mL) and 2 mM of L-glutamine. Vero cells, obtained from ECACC, were suspended in culture medium and 25 μL was added to 384-well plates (2500 cells/well), which already contain the antiviral compounds. Typically, these plates contain a 5-fold serial dilution of 9 dilution steps of the test compound at 200 times the final concentration in 100% DMSO (200 nL). […] Finally, each plate contains wells which are assigned as virus controls (containing cells and virus in the absence of compound), cell controls (containing cells in the absence of virus and compound) and medium controls (containing medium in the absence of cells, virus and compounds). To the wells assigned as medium control, 25 μL of culture medium was added instead of Vero cells. Once the cells were added to the plates, the plates were incubated for 30 minutes at room temperature to allow the cells to distribute evenly within the wells. Next, the plates were incubated in a fully humidified incubator (37° C., 5% CO2) until the next day. Then, DENV-2 strain 16681, labeled with eGFP, was added at a multiplicity of infection (MOI) of 0.5. Therefore, 15 μL of virus suspension was added to all the wells containing test compound and to the wells assigned as virus control. In parallel, 15 μL of culture medium was added to the medium and cell controls. Next, the plates were incubated for 3 days in a fully humidified incubator (37° C., 5% CO2). At the day of the read out, the eGFP fluorescence was measured using an automated fluorescence microscope at 488 nm (blue laser). Using an in-house LIMS system, inhibition dose response curves for each compound were calculated and the half maximal effective concentration (EC50) was determined. Therefore, the percent inhibition (I) for every test concentration is calculated using the following formula: I=100*(ST-SCC)/(SVC-SCC), ST, SCC and SVC are the amount of eGFP signal in the test compound, cell control and virus control wells, respectively. The EC50 represents the concentration of a compound at which the virus replication is inhibited with 50%, as measured by a 50% reduction of the eGFP fluorescent intensity compared to the virus control. The EC50 is calculated using linear interpolation (Table 1).

For another data set, the system named is DENV-1 strain TC974#666. Briefly: Tetravalent RT-qPCR assay Protocol A, serotype 1. The settings on record: RT-qPCR serotype 1 TC974#666. The protocol:
(§1) The antiviral activity of the compounds of the invention was tested against DENV-1 strain TC974#666 (NCPV), DENV-2 strain 16681, DENV-3 strain H87 (NCPV) and DENV-4 strain H241 (NCPV) in a RT-qPCR assay. Therefore, Vero cells were infected with either DENV-1, or -2, or -3, or -4 in the presence or absence of test compounds. At day 3 post-infection, the cells were lysed and cell lysates were used to prepare cDNA of both a viral target (the 3′UTR of DENV; Table 2) and a cellular reference gene (β-actin, Table 2). Subsequently, a duplex real time PCR was performed on a Lightcycler480 instrument. The generated Cp value is inversely proportional to the amount of RNA expression of these targets. Inhibition of DENV replication by a test compound results in a shift of Cp's for the 3′UTR gene. On the other hand, if a test compound is toxic to the cells, a similar effect on β-actin expression will be observed. The comparative ΔΔCp method is used to calculate EC50, which is based on the relative gene expression of the target gene (3′UTR) normalized with the cellular housekeeping gene (β-actin). In addition, CC50 values are determined based on the Cp values acquired for the housekeeping gene β-actin.
(§2) The culture medium consisted of minimal essential medium supplemented with 2% of heat-inactivated fetal calf serum, 0.04% gentamycin (50 mg/mL) and 2 mM of L-glutamine. Vero cells, obtained from ECACC, were suspended in culture medium and 75 μL/well was added in 96-well plates (10000 cells/well), which already contain the antiviral compounds. […] In addition, each plate contains wells which are assigned as virus controls (containing cells and virus in the absence of compound) and cell controls (containing cells in the absence of virus and compound). Once the cells were added in the plates, the plates were incubated in a fully humidified incubator (37° C., 5% CO2) until the next day. Dengue viruses serotype-1, 2, 3 and 4 were diluted in order to obtain a Cp of ˜22-24 in the assay. Therefore, 25 μL of virus suspension was added to all the wells containing test compound and to the wells assigned as virus control. In parallel, 25 μL of culture medium was added to the cell controls. Next, the plates were incubated for 3 days in a fully humidified incubator (37° C., 5% CO2). After 3 days, the supernatant was removed from the wells and the cells were washed twice with ice-cold PBS (˜100 μL). The cell pellets within the 96-well plates were stored at −80° C. for at least 1 day. Next, RNA was extracted using the Cells-to-CT™ lysis kit, according to the manufacturer's guideline (Life Technologies). The cell lysates can be stored at −80° C. or immediately used in the reverse transcription step.
(§3) In preparation of the reverse transcription step, mix A (table 3A) was prepared and 7.57 μL/well was dispensed in a 96-well plate. After addition of 5 μL of the cell lysates, a five minute denaturation step at 75° C. was performed (table 3B). Afterwards, 7.43 μL of mix B was added (table 3C) and the reverse transcription step was initiated (table 3D) to generate cDNA.
(§4) Finally, a RT-qPCR mix was prepared, mix C (table 4A), and 22.02 μL/well was dispensed in 96-well LightCycler qPCR plates to which 3 μL of cDNA was added and the qPCR was performed according to the conditions in table 4B on a LightCycler 480.
(§5) Using the LightCycler software and an in-house LIMS system, dose response curves for each compound were calculated and the half maximal effective concentration (EC50) and the half maximal cytotoxic concentration (CC50) were determined (Tables 5-8).
For orientation: Quantitative PCR measures a nucleic acid by following its amplification.

The subject of a further data set is DENV-4 strain H241. Description: Tetravalent RT-qPCR assay Protocol A, serotype 4. Conditions: RT-qPCR serotype 4 H241. The method, then:
as §1, §2, §3, §4, §5

The next data set concerns DENV-2 strain 16681. Briefly: Tetravalent RT-qPCR assay Protocol A, serotype 2. The settings on record: RT-qPCR serotype 2 16681. The method, then: as §1, §2, §3, §4, §5
The subject of another data set is DENV-3 strain H87. Briefly: Tetravalent RT-qPCR assay Protocol A, serotype 3. The settings on record: RT-qPCR serotype 3 H87. The protocol:
as §1, §2, §3, §4, §5

In the case of `COc1cc(NC(C(=O)N2CCc3c(C)cc(OC(F)(F)F)cc32)c2ccc(Cl)cc2OCCO)cc(-n2cncn2)c1` (single isomer, unassigned) [Compound 10B], the SI is recorded as 51400 in the data set with DENV-2 16681 strain; >8670 in the data set on DENV-1 strain TC974#666; 27 in the data set on DENV-4 strain H241; >10700 with DENV-2 strain 16681; >414 with DENV-3 strain H87.
For `COc1cc(NC(C(=O)N2CCc3ccc(OC(F)(F)F)cc32)c2ccc(Cl)cc2OCCCC(=O)O)cc(-n2cncn2)c1` (single isomer, unassigned) [Compound 13A] the same measures were 103601, >32500, 251, >53100 and >1580.
For the compound `COc1cc(NC(C(=O)N2CCc3ccc(OC(F)(F)F)cc32)c2ccc(F)cc2OCCO)cc(-n2cncn2)c1` (single isomer, unassigned) [Compound 3B], the SI is on record as 11400 in the data set with DENV-2 16681 strain; >1550 with DENV-1 strain TC974#666; >25 in the data set on DENV-4 strain H241; 5680 with DENV-2 strain 16681; >136 with DENV-3 strain H87.
For `COc1cc(NC(C(=O)N2CCc3cc(OC)c(C(F)(F)F)cc32)c2ccc(Cl)cc2OCCCC(=O)O)cc(-n2cncn2)c1` (single isomer, unassigned) [Compound 12A] the same measures were 11000, 3850, 96, 19800 and 384.
